In PMC4507180:
The exact form of at least one protein or probe is not confirmed. For part of these data: No signal at the amounts used counts as a negative.

Legend:
[1] = target: T1, DndB (Salmonella enterica serovar Cerro 87) (UniProt E2D676); experiment: EMSA; details: 0-300 nM DndB; EMSA: 20 mM Tris-HCl pH 8.0, 50 mM KCl, 10 mM MgCl2, 5 mM EDTA, 10 mM DTT, 5% glycerol, room temperature 30 min, 20 nM DNA; recombinant protein; protein details: NusA-His tag N-terminal, removed by TEV; probe letters rebuilt from the primers and the genome
T1 sequence: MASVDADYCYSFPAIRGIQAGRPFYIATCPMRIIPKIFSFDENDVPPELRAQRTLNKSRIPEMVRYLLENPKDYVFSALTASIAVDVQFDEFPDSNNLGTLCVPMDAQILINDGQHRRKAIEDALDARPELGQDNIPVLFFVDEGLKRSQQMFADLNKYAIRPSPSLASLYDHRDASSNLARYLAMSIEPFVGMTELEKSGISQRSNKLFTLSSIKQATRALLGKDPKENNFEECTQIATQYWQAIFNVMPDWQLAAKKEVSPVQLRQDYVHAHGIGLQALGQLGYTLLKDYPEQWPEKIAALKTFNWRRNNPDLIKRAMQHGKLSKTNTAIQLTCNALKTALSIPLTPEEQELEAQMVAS

[2] = target: T1, DndB (Salmonella enterica serovar Cerro 87); experiment: DNase I footprinting; details: two protected regions BB1 and BB2; footprinting: 25 C 30 min, 200 ng probe in 40 uL; recombinant protein; protein details: NusA-His tag N-terminal, removed by TEV; probe letters rebuilt from the primers and the genome; part of a longer molecule

Sequence | binding result [1] | binding result [2]
AGTGCTCGTGGCTGCTGTGTTATTATTTTAACCTCCGGGGAGAATGACGCTGATACCTCCTGTCGTTAACGGTAAGGGGATGTTCGATATGATGATTATCTCAACATCACCCGAACGTGTAATAAACTGTATCCAAATTAACTCCAGGCA (double strand) [B2] | no binding | –
GCATCTGAGCCGTTTGGCGGGGGCATGAATGCGAAACTGAATGCGTAACACCACCACGTTCATTGGTTCTGCGGTTGTTGCGCTGGACAGATTGGTGAGGCCAGGCAGCTGTTTGAAGGTTATGGTTCTATGTCTCTATTGACTAGATGGTATTGCAGGTGCTTTTCGGTCTGAAGAAAAAGCATAAACCTATGATGTTCGAATTGGCGTTGCTGCGTGGTTACCCTGT (double strand) [B3] | no binding | –
GCTGTAATCCGTGTAAAAATCGAATGAATTGAGTTACGTGATATTTTACGTAATGCTTAATAAAATTTATAGTTTTTTTTATGTTTTACGTGATTTTTTGCGTACAGGGTTCCATATCTGAGA (double strand) [B1 footprint probe] | – | binds
